The target in experiment [1] is TBEV prMe-linker-sE W101D single-chain construct (Tick-borne encephalitis virus, strain Neudoerfl). As to the kind of experiment: crystal structure.
In experiment [2] the target is TBEV prMe-linker-sE^W101D single-chain protein (tick-borne encephalitis virus strain Neudoerfl). As to the kind of experiment: crystal structure.

These results are taken from PMC9239988 (2022).

As usually defined, the stoichiometry N is the number of molecules, sites or subunits per partner or assembly. In turn, “TBEV prMe-linker-sE W101D single-chain construct” yielded a stoichiometry N in experiment [1] of 3. For “TBEV prMe-linker-sE^W101D single-chain protein”, the stoichiometry N in experiment [2] was 3.
